For this assay, the target named is Major prion protein (Mesocricetus auratus) (UniProt P04273). As to the kind of experiment: Binding affinity to Syrian hamster PrPC assessed as inhibition of PrPC protein conversion to PrPSc by measuring PrPSc level relative to untreated control. Also on record: concentration or dose not given beside the values.

By UniProt entry, the sequences of proteins in these tests, tags left out.
UniProt P04273, whole entry: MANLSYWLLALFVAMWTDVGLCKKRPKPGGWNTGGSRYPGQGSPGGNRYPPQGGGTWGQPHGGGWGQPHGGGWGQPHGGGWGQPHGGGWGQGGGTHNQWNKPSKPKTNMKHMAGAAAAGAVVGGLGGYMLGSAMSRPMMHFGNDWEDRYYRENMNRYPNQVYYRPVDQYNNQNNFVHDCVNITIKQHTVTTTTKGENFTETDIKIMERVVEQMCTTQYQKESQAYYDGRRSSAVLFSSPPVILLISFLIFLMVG

For `O=C(CSc1ncnc2sc3c(c12)CCC3)NCC1CCCO1` (stereo unspecified), the Activity came to 93.7%.

These data come from ChEMBL document CHEMBL4177581, “The compound (3-{5-[(2,5-dimethoxyphenyl)amino]-1,3,4-thiadiazolidin-2-yl}-5,8-methoxy-2H-chromen-2-one) inhibits the prion protein conversion from PrPC to PrPSc with lower IC50 in ScN2a cells” (Bioorg Med Chem, 2017).
